A mixed list of measured activities; the numbers were collected in NIAID ChemDB.

All rows: tests in culture; agent: Candida albicans; endpoint: MIC

a–b is a range or a potency band. An empty or dashed field is not shown. Neighbouring rows are from separate reports.

compound	strain	read by	result
Cc1cc2occ(C=O)c(=O)c2cc1C	PN-10		10–50 µg/mL
COc1ccc(/C=C2\Sc3nnc(COc4ccc(Cl)cc4)n3N=C2c2cc(F)c(Cl)cc2Cl)cc1OC			6 µg/mL
C\C1=C/C=C/C=C/C=C/C=C/CC2CC(O)CC(O)(CC(O)CC(O)CC(O)CC(O)CC(O)CC(O)CC(O)/C=C/C(C)C(C(C)C)OC1=O)O2		broth dilution	70 µg/mL
C/C=C/C1=CC2=C(CO1)C(=O)[C@](C)(O)[C@H](OC(=O)c1c(C)cc(O)c(O)c1OC)C2		broth dilution	>256 µg/mL
C[n+]1c2ccc(Cl)cc2cc2[nH]c3ccccc3c21	ATCC 90028	resazurin	>5.5 µg/mL
CSc1c[n+](C)c2ccccc2c1Nc1ccc(Cl)cc1	ATCC 10231	broth dilution	128 µg/mL
COC(=O)/C=C/C(=O)NCC(NC(=O)[C@@H](N)C(C)C)C(=O)O			0.78 µg/mL
CCCCCCCCCOC[N+](C)(C)Cc1cc(N=Nc2ccc(Cl)cc2)ccc1O			259 µM
COC(=O)c1ccc2nc(-c3cccs3)[nH]c2c1			50 µg/mL
CCCc1ccc(NS(=O)(=O)c2ccc(CN(C)CC(O)(Cn3cncn3)c3ccc(F)cc3F)cc2)cc1	DSY735	resazurin	0.29 µg/mL
Cn1ccc2c3oc(-c4ccccc4)cc(=O)c3ccc21			25 µg/mL
O=C1NC(c2ccc(Oc3ccccc3)cc2)=C/C1=C\c1cccs1			10 µg/mL
CN(Cc1ccc(S(=O)(=O)NC(C)(C)C)cc1)CC(O)(Cn1cncn1)c1ccc(F)cc1F	98 001	resazurin	<0.001 µg/mL
COC(=O)/C=C/C(=O)NCC(NC(=O)CN)C(=O)O			50 µg/mL
COc1ccc(/C=C/C(=O)c2ccc3sccc3c2O)cc1			>50 µg/mL
Fc1cc(C2=Nn3c(COc4ccc(Cl)cc4)nnc3S/C2=C\c2ccc(Cl)cc2Cl)c(Cl)cc1Cl			12.5 µg/mL
CC(C)CCCC(C)CCCC(C)CCCCC(C)CCCC(C)CCC[N+](C)(C)[O-]	S124		>200 µg/mL
C[n+]1cc(SC(=O)c2ccccc2)c(Nc2ccc(Cl)cc2)c2ccccc21	ATCC 10231	broth dilution	256 µg/mL
Clc1ccc(COC(Cn2ccnc2)c2ccc(Cl)cc2Cl)c(Cl)c1		agar diffusion / agar	110.8 µg/mL
CCCC1=CC2=C(CO1)C(=O)[C@](C)(OC(=O)c1c(C)cc(O)c(O)c1OC)[C@H](O)C2		broth dilution	>256 µg/mL
Cc1ccc(N=Nc2ccc(O)c(C[N+](C)(C)COC3CCCCCCC3)c2)cc1			36 µM
Clc1ccc2oc(Cc3ccc(Br)cc3)nc2c1			25 µg/mL
Fc1cc(C2=Nn3c(COc4ccccc4Cl)nnc3S/C2=C\c2ccc(Cl)cc2Cl)c(Cl)cc1Cl			12.5 µg/mL
CCNC1Oc2ccc(Cl)cc2C(=O)/C1=C/Nc1ccc2nc(Sc3ccc([N+](=O)[O-])cc3[N+](=O)[O-])sc2c1	PN-10		50–250 µg/mL
CCCC1=CC2=C(CO1)C(=O)[C@](C)(O)[C@H](OC(=O)c1c(C)cc(O)c(O)c1OC)C2		broth dilution	>256 µg/mL
CCC(C)CC(C)CCCCCCCCC(=O)N[C@H]1C[C@@H](O)[C@H](NCCN)NC(=O)[C@@H]2[C@@H](O)CCN2C(=O)[C@H]([C@H](O)CCN)NC(=O)[C@H]([C@H](O)[C@@H](O)c2ccc(O)cc2)NC(=O)[C@@H]2C[C@@H](O)CN2C(=O)[C@H]([C@@H](C)O)NC1=O	10 isolates azole-resistant		0.4 µg/mL
O=C(O)c1cccc(C(=O)O)n1	ATCC 10231		>450 µg/mL
O=C1OC(c2ccc(Oc3ccccc3)cc2)=C/C1=C\c1ccc(Cl)cc1Cl			50 µg/mL
C=C1CC(C/C(C)=C/COc2ccc3ccc(=O)oc3c2)OC1=O	MTCC 183		78 µg/mL
COc1ccccc1-c1c(C#N)c(OC)nc2c1CSc1ccc(Cl)cc1-2			25 µg/mL
O=C1OC(c2ccc(Oc3ccccc3)cc2)=C/C1=C\c1cccs1			50 µg/mL
Cc1c(O)cccc1C(=O)N[C@@H](CSc1ccccc1)[C@H](O)CN1C[C@H]2CCCC[C@H]2C[C@H]1C(=O)NC(C)(C)C	I132A		64 µg/mL
CC[N+](C)(CC)CCCC(C)CCCC(C)CCCCC(C)CCCC(C)CCC[N+](C)(CC)CC	S124		3.12 µg/mL
COc1nc2c(c(-c3ccc4c(c3)OCO4)c1C#N)CSc1ccccc1-2			25 µg/mL
O=C1OC(c2ccc(Oc3ccccc3)cc2)=C/C1=C\c1ccccc1			>100 µg/mL
CC(C)NS(=O)(=O)c1ccc(CN(C)CC(O)(Cn2cncn2)c2ccc(F)cc2F)cc1	98 001	resazurin	0.002 µg/mL
Clc1ccccc1C(c1ccccc1)(c1ccccc1)n1ccnc1	ATCC 10231	broth dilution	4 µg/mL
COC1=C(C(C)C)C(=O)C2=C(C1=O)C1(C)CCCC(C)(C)C1=CC2OC(C)=O			9.72 µg/mL
O=C(/C=C/c1cc(Cl)ccc1Cl)c1c[nH]c2ccccc12	ATCC 90028	broth dilution	200 µg/mL
Fc1cc(C2=Nn3c(CNc4ccc(Cl)cc4)nnc3S/C2=C\c2ccc3c(c2)OCO3)c(Cl)cc1Cl			6 µg/mL
COC(=O)/C=C/C(=O)NCC(N)C(=O)N[C@@H](Cc1ccc(O)cc1)C(=O)O			12.5 µg/mL
C[n+]1cc(SC(=O)c2ccccc2)c(Nc2ccccc2)c2ccccc21	ATCC 10231	broth dilution	512 µg/mL
CCNC1Oc2cc(Cl)ccc2C(=O)/C1=C/Nc1ccc2[nH]c(=S)sc2c1	PN-10		50–250 µg/mL
CCN(CC)CCCC(C)=CCC/C(C)=C/CCC=C(C)CC/C=C(\C)CCC=C(C)C	S124		100 µg/mL
CCOC1Oc2ccccc2C(=O)/C1=C\Nc1ccc(C(=O)O)c(O)c1	PN-10		50 µg/mL
COc1cc(OC)cc(C(=O)Nc2cc(Cl)ccc2O)c1			25 µg/mL
Cc1ccc2occ(/C=N/NC(=O)c3ccccc3O)c(=O)c2c1	PN-10		250–400 µg/mL
COC(=O)/C=C/C(=O)NC[C@@H](NC(=O)[C@@H](C)N)C(=O)O			>200 µg/mL
OC(Cn1cncn1)(Cn1cncn1)c1ccc(F)cc1F		agar	25–100 µg/mL
COC(=O)/C=C/C(=O)NCC(NC(=O)[C@@H](N)CCCCN)C(=O)O			6.25 µg/mL
O=C1NC(c2ccc(Oc3ccccc3)cc2)=C/C1=C\c1ccccc1O			>100 µg/mL
Cc1ccc(C(=O)Nc2ccccc2O)cc1			12.5 µg/mL
CCCCCCCCOC[N+](C)(C)Cc1cc(N=Nc2ccc(Cl)cc2)ccc1O			267 µM
Clc1ccccc1C(c1ccccc1)(c1ccccc1)n1ccnc1			2 µg/mL
CCCCCCCCCCCCC/C=C/C1=N[C@H]1C(=O)OC	ATCC 14503		8–9 µg/mL
NC(=O)C1=C(O)OC2=C(CSc3ccccc32)C1c1ccccc1			100 µg/mL
Cc1ccc(N2N=C(c3c[nH]c4ccccc34)CC2c2cc(Cl)cc(Cl)c2)cc1	ATCC 90028	broth dilution	200 µg/mL
CC(C)c1ccc(NS(=O)(=O)c2ccc(CN(C)CC(O)(Cn3cncn3)c3ccc(F)cc3F)cc2)cc1	CAAL-74	resazurin	0.17 µg/mL
Fc1cc(C2=Nn3c(COc4ccccc4Cl)nnc3S/C2=C\c2ccc(Cl)cc2)c(Cl)cc1Cl			12.5 µg/mL
CC[N+]([O-])(CC)CCCC(C)=CCC/C(C)=C/CCC=C(C)CC/C=C(\C)CCC[N+]([O-])(CC)CC	S9		100 µg/mL
COC(=O)/C=C/C(=O)NCC(N)C(=O)N[C@@H](CC(C)C)C(=O)O			1.56 µg/mL
CSc1c[n+](C)c2ccccc2c1Nc1ccc(C)cc1	ATCC 10231	broth dilution	128 µg/mL
O=c1c(O)c(-c2ccccc2)oc2c1ccc1sccc12			>50 µg/mL
COC(=O)c1ccc2nc(-c3ccccc3Cl)[nH]c2c1			50 µg/mL
Cc1ccc2occ(/C=N/NC(=O)c3cc(O)c(O)c(O)c3)c(=O)c2c1	PN-10		400 µg/mL
COc1ccc(/C=C2\Sc3nnc(CNc4ccccc4)n3N=C2c2cc(F)c(Cl)cc2Cl)cc1OC			12.5 µg/mL
OC(Cn1cncn1)(Cn1cncn1)c1ccc(F)cc1F		broth dilution	1 µg/mL
COc1ccc(/C=C2\Sc3nnc(COc4ccc(Cl)cc4Cl)n3N=C2c2cc(F)c(Cl)cc2Cl)cc1OC			6 µg/mL
CC(=O)N1CCN(c2ccc(OC[C@H]3CO[C@](Cn4ccnc4)(c4ccc(Cl)cc4Cl)O3)cc2)CC1	ATCC 90028	broth dilution	12.5 µg/mL
CCc1nn(CC(=O)NN)c(=O)n1NCc1ccc(C)cc1			250 µg/mL
COC(=O)[C@@H]1N=C1/C=C\CCCCCCCCCCCCC(C)(C)C	ATCC 14503		>64 µg/mL
N#CC1=C(N)OC2=C(CSc3ccc(Cl)cc32)C1c1cccc2ccccc12			100 µg/mL
COC(=O)c1ccc2nc(-c3ccccc3OC)[nH]c2c1			25 µg/mL
Cc1ccc(O)c(NC(=O)c2ccc(C(C)(C)C)cc2)c1			25 µg/mL
COc1ccc2c(Cc3ccc(C(C)(C)C)cc3)c3[n+](cc2c1OC)CCc1cc2c(cc1-3)OCO2	Isolate YH-019		3.13 µg/mL
COc1ccc(-c2cc(=O)c3ccc4c(ccn4C)c3o2)cc1			>50 µg/mL
COc1cccc(/C=C2\C=C(c3ccc(Oc4ccccc4)cc3)OC2=O)c1			>100 µg/mL
C[C@H]1[C@H](O)[C@@H](C)/C=C/C=C/C=C/C=C/C=C/C=C/C=C/[C@H](O[C@@H]2O[C@H](C)[C@@H](O)[C@H](N)[C@@H]2O)C[C@@H]2O[C@](O)(C[C@@H](O)C[C@@H](O)CC[C@H](O)[C@@H](O)C[C@@H](O)CC(=O)O[C@H]1C)C[C@H](O)[C@H]2C(=O)O			40 µg/mL
CC(C)CCCC(C)CCCC(C)CCCCC(C)CCCC(C)CCCN(C)C	S124		>200 µg/mL
C[N+](C)(COC1CCCC1)Cc1cc(N=Nc2ccc(Cl)cc2)ccc1O			146 µM
CC(C)c1ccc(S(=O)(=O)Nc2ccc(CN(C)CC(O)(Cn3cncn3)c3ccc(F)cc3F)cc2)cc1	DSY735	resazurin	0.24 µg/mL
CC(=O)Sc1c[n+](C)c2ccccc2c1Nc1ccc(Cl)cc1	ATCC 10231	broth dilution	256 µg/mL
CCNC1Oc2ccc(C)cc2C(=O)/C1=C/Nc1ccc2nc(Sc3ccc([N+](=O)[O-])cc3[N+](=O)[O-])sc2c1	PN-10		250 µg/mL
COC(=O)/C=C/C(=O)NCC(NC(=O)[C@@H](N)Cc1ccccc1)C(=O)O			3.12 µg/mL
CCCCCCCCCCCCC/C=C\C1=NC1C(=O)OC	96-489		2–3 µg/mL